Data published in paper PMC10900488, “Synthesis and Evaluation of (Bis)benzyltetrahydroisoquinoline Alkaloids as Antiparasitic Agents” (JACS Au, 2024).

Tests used:
[1] = test system: T. cruzi amastigotes; assay: Antiamastigote assay (T. cruzi), ex vivo intracellular model using mice macrophages, microscopy; assay type: cell-based, Trypanosoma (T.) cruzi; details: selectivity index CC50 (NCTC cells)/IC50 amastigotes
Experimental: T. cruzi also assumes several cell morphologies during its lifecycle, which differ between the insect vector and mammalian host. In the latter environment, the parasite transitions between extracellular bloodstream trypomastigotes and intracellular amastigotes; both forms are clinically relevant, particularly during the acute stage of Chagas disease.[34] In this work, antitrypanosomal activity was tested against both the amastigote form (evaluated microscopically using an ex vivo intracellular model using mice macrophages) and the trypomastigote form (using the resazurin in vitro assay).[33],[35] […] In silico predictions of pharmacokinetic profiles were carried out using the SwissADME webtool (see the Supporting Information for details).[36] […]
[…] Cultivation was performed in 2% fetal calf serum supplemented RPMI-1640 medium.
The trypomastigotes were maintained in a humidified incubator at 37 °C and with 5% CO2. […]
(§1) Peritoneal macrophages were obtained via washing the peritoneal cavity of BALB/c mice with 10% foetal calf serum supplemented RPMI-1640 medium (pH 7.2). The macrophages were maintained in a humidified incubator at 37 °C and with 5% CO2.
(§2) Biological activity assays […]
Peritoneal macrophages (1 × 10^5 cells/well) obtained from the peritoneal cavity of BALB/C mice were added to 16-well chambers (NUNC, Thermo Fischer Scientific). The cells were infected with trypomastigotes (10:1 parasites/macrophage) for 2 h. Then treatment of the infected macrophages with selected compounds (serially diluted 1.2 to 100 μM) was performed in a humidified incubator for 48 h at 37 °C and with 5% CO2. The treated cells were fixed on slides using methanol, stained with Giemsa and observed under a light microscope (EVOS M5000, Thermo, USA) with digital image equipment. The infection index was used in order to determine the half inhibitory concentration (IC50) (no. infected macrophages × no. amastigotes / total no.

[2] = test system: L. infantum amastigotes; assay: Antiamastigote assay (L. infantum), ex vivo intracellular model of mice macrophages, microscopy; assay type: cell-based, Leishmania (L.) infantum; details: selectivity index CC50 (NCTC cells)/IC50 amastigotes
Experimental: Table 1 depicts the antileishmanial (L. infantum) activity evaluation performed against both the amastigote form (evaluated microscopically using an ex vivo intracellular model of mice macrophages) and the promastigote one (using an MTT colorimetric method).[32],[33] The cytotoxicity was evaluated against NCTC cells using an MTT colorimetric method and the selectivity index was determined using the ratio between the CC50 values (NCTC cells) and the IC50 values (amastigotes).[32] […] With respect to the substituents on the C ring, larger, hydrophobic groups conferred greater bioactivity (e.g., 9b–d), whereas small, hydrophilic groups such as a hydroxyl group afford modest to poor bioactivity.
Leishmania (L.) infantum (MHOM/BR/1972/LD) amastigotes were obtained from golden hamsters (Mesocricetus auratus) spleens following 60-70 days of infection via differential centrifugation. The Stauber method was used to determine the number of parasites.12 […]
as §1, §2
Antiamastigote Assay (L. infantum)
Peritoneal macrophages (1 × 10^5/well) were added to a 16-well slide chambers (NUNC) and incubated with 5% CO2 at 37 °C. The cells were subsequently infected with L. infantum amastigotes (10:1 amastigotes/macrophage) for 24 h. Treatment of the cells with selected compounds (serially diluted 1.2 to 150 μM) was performed in a humidified incubator for 96 h at 37 °C and with 5% CO2. Untreated cells were used as a negative control and miltefosine was used as a standard drug. The treated cells were fixed on slides with methanol, stained with Giemsa and observed under a light microscope.13 The infection index was used in order to determine the half inhibitory concentration (IC50) (no. infected macrophages × no. amastigotes / total no. […]

Row | SMILES | T. cruzi SI [1] | L. infantum SI [2]
1 | COc1cc2c(cc1OC)[C@H](Cc1ccc(Br)cc1)N(C)CC2 [(S)-9a] | 1.7 | 3.2
2 | O=C(Cn1ccnc1[N+](=O)[O-])NCc1ccccc1 [benznidazole, reference compound] | >40 | 
3 | COc1cc2c(cc1OC)[C@@H](Cc1ccc(Br)cc1)N(C)CC2 [(R)-9a] | 2.7 | 3.7
4 | COc1cc2c(cc1OC)[C@@H](Cc1ccc(OCc3ccccc3)cc1)N(C)CC2 [(R)-9d] | 4.5 | 3.0
5 | COc1cc2c(cc1OC)[C@H](Cc1ccc(OC)c(OCc3ccccc3)c1)N(C)CC2 [(S)-9b] | 3.9 | 1.8
6 | COc1cc2c(cc1OC)[C@@H](Cc1ccc(Oc3cc(C[C@H]4c5cc(OC)c(OC)cc5CCN4C)ccc3O)cc1)N(C)CC2 [(R,S)-13] | 4.8 | 
7 | COc1cc2c(cc1OC)[C@@H](Cc1ccc(Oc3cc(C[C@@H]4c5cc(OC)c(OC)cc5CCN4C)ccc3OC)cc1)N(C)CC2 [(R,R)-11, (−)-O-methyldauricine] | 7.8 | 
8 | COc1cc2c(cc1OC)[C@H](Cc1ccc(OCc3ccccc3)cc1)N(C)CC2 [(S)-9d] | 2.0 | <1
9 | CCCCCCCCCCCCCCCCOP(=O)([O-])OCC[N+](C)(C)C [miltefosine, reference compound] |  | 18
10 | COc1cc2c(cc1OC)[C@@H](Cc1ccc(O)c(Oc3ccc(C[C@H]4c5cc(OC)c(OC)cc5CCN4C)cc3)c1)N(C)CC2 [(S,R)-13] | 3.6 | 
11 | COc1cc2c(cc1OC)[C@@H](Cc1ccc(Oc3cc(C[C@H]4c5cc(OC)c(OC)cc5CCN4C)ccc3OC)cc1)N(C)CC2 [(S,R)-11, (−)-O,O′-dimethylgrisabine] | 4.7 | 
12 | COc1ccc(COc2ccc(C[C@@H]3c4cc(OC)c(OC)cc4CCN3C)cc2)cc1 [(R)-10c] |  | 3.0
13 | COc1cc2c(cc1OC)[C@H](Cc1ccc(Oc3cc(C[C@H]4c5cc(OC)c(OC)cc5CCN4C)ccc3O)cc1)N(C)CC2 [(S,S)-13, (+)-dauricine] | 7.0 | 
14 | COc1ccc(COc2ccc(C[C@H]3c4cc(OC)c(OC)cc4CCN3C)cc2Br)cc1 [(S)-9c] | 1.9 | 
15 | COc1cc2c(cc1OC)[C@@H](Cc1ccc(OC)c(OCc3ccccc3)c1)N(C)CC2 [(R)-9b] | > 10 and 13 | 4.7

Values joined by “and” are separate entries in the source; they are usually repeats but may differ in a detail not shown here. Identical values can stand only once.
